Results from US8785211B2 (priority 2005, dated 2014).

Molecular target: α-hemolysin (M113R)7/am7-βCD transient complex (Staphylococcus aureus, UniProt P09616, M139R)
Conditions: +130 mV; for Dwell time τoff: pH 8.0 Tris-HCl 25 mM, 1 M KCl, averaged from three independent measurements, over 500 events each; for Peak value of current amplitude, average: all 4 nucleotides present, 5 independent experiments, normalised to cyclodextrin peak at 65 pA; for Average value (mean) of the current amplitude distribution / σ of the Gaussian current amplitude distribution: one nucleotide on cis side, three independent experiments, normalised between 0 and 65 pA

Nc1ncnc2c1ncn2[C@H]1C[C@H](O)[C@@H](COP(=O)(O)O)O1
Dwell time τoff: 7.1 ± 0.2 ms
Peak value of current amplitude, average: 18.6 ± 0.6 pA
Average value (mean) of the current amplitude distribution: 18.4 pA
σ of the Gaussian current amplitude distribution: 0.54 pA

Nc1ccn([C@H]2C[C@H](O)[C@@H](COP(=O)(O)O)O2)c(=O)n1
Dwell time τoff: 10.5 ± 0.4 ms
Peak value of current amplitude, average: 20.2 ± 0.5 pA
Average value (mean) of the current amplitude distribution: 20.0 pA
σ of the Gaussian current amplitude distribution: 0.51 pA
